Laboratory results from patent US20250243261A1.

molecular target: HA H4 Hubei, A/swine/Hubei/06/2009(H4N1) (Influenza A virus)

Row | Substance | Kd [nM]
1 | MEDI8852 UCA VH K58S Fab | 2500
2 | MEDI8852 UCA VH K58S-P75R IgG (antibody) | 47
3 | MEDI8852 UCA VH K58S-V65P-P75R IgG (antibody) | 72
